# This is a selection; strong and weak results do not stand in their true shares. Calls of active or inactive are those of the source. Calls come from the whole dose curve; as a rule, active = well fitted inhibition curve with a large enough effect; inconclusive = small, poorly fitted or top-dose-only effect; inactive = no such curve, though single readings can be large or run the other way.
# Protein sequences, listed by entry. Tags and fused reporters are not part of them. Lines headed by an entry give the natural chain unless they say otherwise; changes in a name come on top.
# UniProt P00811: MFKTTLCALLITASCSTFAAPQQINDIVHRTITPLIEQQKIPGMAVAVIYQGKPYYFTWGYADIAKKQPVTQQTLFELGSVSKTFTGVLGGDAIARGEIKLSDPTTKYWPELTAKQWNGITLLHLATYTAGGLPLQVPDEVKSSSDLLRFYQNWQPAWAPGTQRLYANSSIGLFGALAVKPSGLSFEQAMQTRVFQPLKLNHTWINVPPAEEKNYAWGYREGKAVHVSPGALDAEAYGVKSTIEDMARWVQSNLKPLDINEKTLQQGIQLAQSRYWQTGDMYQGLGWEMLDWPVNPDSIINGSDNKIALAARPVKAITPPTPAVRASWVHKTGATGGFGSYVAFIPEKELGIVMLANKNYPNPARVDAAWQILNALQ
# Target: Beta-lactamase (Escherichia coli (strain K12)) (UniProt P00811)
# Assay: qHTS Inhibitors of AmpC Beta-Lactamase (assay without detergent); note: nearly all actives have a fitted effect of over 20% in size
# Settings: AmpC nitrocefin hydrolysis, absorbance 480 nm, 0.0001% Triton; at 57.1 µM (top of the series) unless noted
# Protocol: NIH Molecular Libraries Probe Production Network [MLPCN] NIH Chemical Genomics Center [NCGC] Assay Provider: Professor Brian Shoichet, UCSF Assay Overview: This aggregation profiling approach exploits the sensitivity of aggregate formation to detergent. Inhibition of b-lactamase is measured in the presence and absence of 0.01% Triton X-100. This particular assay had the prescence of 0.01% Triton X-100. See Pubchem assay "Promiscuous and Specific Inhibitors of AmpC Beta-Lactamase (assay without detergent)" for related screen. Compounds that inhibit only in the absence of detergent are considered likely promiscuous aggregators. A screen of 1,030 compounds was performed in Brian Shoichet's lab in 96-well format. AmpC activity was measured by following the absorbance at 480 nm. Nitrocefin is a chromogenic substrate: while nitrocefin is yellow (lmax 390 nm), the product of its hydrolysis is red (lmax 486 nm, 17,000 M-1). AmpC beta lactamase was provided by Shoichet Lab, UCSF.
# Buffer: 20 mM phosphate buffer, pH 7.0 Triton X-100: No Detergent screen: 0.0001%, Detergent screen: 0.01%. Reagents/Controls: Buffer in columns 3 and 4 as negative control (no enzyme). 5.3 nM AmpC in columns 1, 2, 5-48. Titration of UCSF compound 9 control (from 10 mM, then 1:2) pin-transferred to column 2. Column 1 is neutral (100% activity). Assay Steps: Six uL of reagents were dispensed to 1536-well Greiner black clear bottom plates. Compounds and controls (23 nL) were transferred via Kalypsys PinTool. The plates were incubated for 15 min at room temperature, and then 2 uL of 800 uM solution of nitrocefin was added to start the reaction. The plates were immediately transferred to and read every 20 seconds for 4 min on ViewLux (Perkin-Elmer) High-throughput CCD imager using 480 nm absorbance protocol. During dispense, reagent bottles were kept submerged into 4 deg C water bath. Keywords: NIH Roadmap, MLSCN, MLI, MLSMR, qHTS, NCGC, AmpC Beta-Lactamase, Aggregation
row,SMILES,"activity change, negative = inhibition"
1,CC1CCC(C(C)C)C(OP(=O)(Nc2ccccn2)c2ccccc2)C1 (configuration not stated),inactive: 81.8%
2,Cc1ccc(C(=O)OC2CN3CCC2CC3)cc1 (configuration not stated),inactive: -8.8%
3,Nc1cccc([As](=O)(O)c2ccccc2)c1,inactive: -8.27%
4,O=[As](O)(c1cccs1)c1cccs1,inactive: 5.44%
5,Cc1ccc(OCC(=O)OC2CN3CCC2CC3)cc1 (configuration not stated),inactive: -13%
6,O=P1(Nc2ccc(Br)cn2)COc2ccccc2OC1,inactive: -12.9%
7,NS(=O)(=O)c1cccc(NC(=O)COC(=O)C(O)(c2ccccc2)c2ccccc2)c1,inactive: -45.8%
8,O=P1(Nc2ncccn2)COc2ccccc2OC1,inactive: -11.3%
9,Clc1n[nH]nc1-c1nn[nH][15n]1,inactive: -6.93%
10,CC(C)(C)C(=O)NC(Sc1ncccn1)C(Cl)(Cl)Cl (configuration not stated),inactive: -5.22%
11,O=P1(Nc2ccccn2)COc2ccccc2OC1,inactive: -11.7%
12,CCC1=CC2Cc3nc4ccc(Cl)cc4c(N)c3C(C1)C2 (configuration not stated),inactive: -34.7%
13,CCOP(=O)(NC(=NC(C)c1ccccc1)NC(C)c1ccccc1)OCC (configuration not stated),inactive: 150%
14,CCOP(=O)(Nc1ccc(C)cn1)OCC,inactive: 3.31%
15,CC(C)/C=N\N=C(\N)N[N+](=O)[O-],inactive: -19.8%
16,CN(C(=O)Cc1ccc(Cl)c(Cl)c1)[C@@H]1CCCC[C@H]1N1CCCC1,inactive: -15.7%
17,O=[As](O)(c1ccccc1Br)c1ccccc1Br,inactive: -8.11%
18,COc1ccccc1CNC(=O)COC(=O)C(O)(c1ccccc1)c1ccccc1,inactive: -10.3%
19,O=C(COc1ccccc1)OC1CN2CCC1CC2 (configuration not stated),inactive: -23.6%
20,O=C(Nc1ccncc1[N+](=O)[O-])c1ccc([N+](=O)[O-])cc1[N+](=O)[O-],inactive: -26.1%
21,COP1(=S)c2c(C)nn(CCC#N)c2N=C(c2ccc(F)cc2)N1C (configuration not stated),inactive: 45.4%
22,CCC(C)N(CC(C)C)C(=S)SC(NC(C)=O)C(Cl)(Cl)Cl (configuration not stated),inactive: 29.9%
23,O=C(OC1CN2CCC1CC2)c1cccc([N+](=O)[O-])c1 (configuration not stated),inactive: -16.7%
24,CCOC(=O)c1ccc(NC(=O)C(C)(CCl)SC)cc1 (configuration not stated),inactive: -2.91%

row,SMILES,"activity change, negative = inhibition"
1,CCCCOc1ccc(C(=O)NCC2(N3CCCCC3)CCCCC2)cc1OC,inactive: 39.4%
2,Cc1cc(SC(NC(=O)c2ccccc2)C(Cl)(Cl)Cl)nc(C(C)C)n1 (configuration not stated),inactive: -9.71%
3,CCOC(=O)Nc1ccc([As](=O)(O)O)c(O)c1,inactive: -21.8%
4,O=P(Nc1ccccn1)(c1cccc2ccccc12)c1cccc2ccccc12,inactive: 2.36%
5,Cc1cc(SC(NC=O)C(Cl)(Cl)Cl)ncn1 (configuration not stated),inactive: 5.25%
6,O=[N+]([O-])c1ccc(Nc2ccc(Oc3ccc([N+](=O)[O-])cc3[N+](=O)[O-])cc2)c([N+](=O)[O-])c1,inactive: -19.6%
7,CCOC(=O)Nc1cccc([As](=O)(O)O)c1,inactive: -17.1%
8,Cc1ccc(OP(=O)(Nc2ccc([N+](=O)[O-])cn2)Oc2ccc(C)cc2)cc1,inactive: -35.5%
9,Cc1ccc2nc3c(c(C)c2c1)CC(C(Cl)Cl)S3 (configuration not stated),inactive: -32.5%
10,C[As](=O)(O)c1cccc(C(=O)O)c1,inactive: -10.4%
11,O=[As](O)(c1ccc(O)cc1)c1ccccc1O,inactive: -10.3%
12,COc1cc(C(=O)NCC2(N3CCOCC3)CCCCC2)ccc1OCC(C)C,inactive: 58.9%
13,CC(C)NC(=O)NP(=O)(Oc1ccccc1)Oc1ccccc1,inactive: -18.7%
14,CCN(CC)C(=S)SC(NC=O)C(Cl)(Cl)Cl (configuration not stated),inactive: -7.44%
15,O=[N+]([O-])c1cc([N+](=O)[O-])c(-c2ccn[nH]2)s1,inactive: -1.64%
16,ClCCSc1nnc(-c2cccnc2)o1,inactive: -1.15%
17,CC(C)c1ccc(OP(=O)(Nc2ccccn2)Oc2ccccc2F)cc1 (configuration not stated),inactive: -25.3%
18,COc1ccc2nc(NP(=O)(c3ccccc3)c3ccccc3)sc2c1,inactive: -19.9% [at 11.4 µM]
19,COc1cc(I)ccc1[As](=O)(O)O,inactive: -6.12%
20,Cc1c2c(nc3ccccc13)SC(C(Cl)Cl)C2 (configuration not stated),inactive: -57.6%
21,O=C(OC1CN2CCC1CC2)C12CC3CC(CC(C3)C1)C2 (configuration not stated),inactive: 4.21%
22,Cc1cc(=O)[nH]c(N[N+](=O)[O-])n1,inactive: -11.9%
23,COc1ccc(N/C(=N/P(=O)(N2CCOCC2)N2CCOCC2)N2CCOCC2)cc1,inactive: -16.8%
